## Potato spindle tuber viroid, loop 15: variant abundance in plants

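A pool of all variants was put on leaves of three Nicotiana benthamiana plants. Samples came from the inoculated region at 5 days, the leaf margin at 10 and upper systemic leaves at 12.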

Region: loop 15 of PSTVd (intermediate strain), upper and lower strand joined, each 5' to 3', the first 7 letters being the upper strand, closing pairs included. Wild type: GGAAACCGCUACUAC. Varied positions (N): GGAAACCGNNNNNNC.

Numbers give reads per thousand; 0 = not seen among the reads, higher = more abundant.
Each value is the mean of three plants.
"Pool" is the share in the plasmid pool used as inoculum, on the same scale.
The inoculated region was read from the minus strand, the other sites from the plus strand.
IR is the inoculated region, LM the leaf margin, Sys the systemic leaves.
The authors trace changes outside the varied positions to PCR and sequencing errors or to mutation in the plant; presence does not show that a variant is infectious alone.
Samples held 43,870 to 66,106 reads, so the smallest values rest on one or two reads.
For reference, wild type rose from 33.9 per thousand in the pool to 202, 200, 159 (inoculated region), 724, 746, 710 (leaf margin) and 856, 883, 880 (systemic leaves).

GGAAACCGCUAGCAC (pool 0.224) gave IR 0.346; LM 0.0726; Sys 0.0587. GGAAACCGAGCUGAC (pool 0.128) gave IR 0.249; LM 0.0208; Sys 0. GGAAACCGUAUCCGC (pool 0.192) gave IR 0.201; LM 0.0195; Sys 0. GGAAACCGGCAUCUC (pool 0.224) read IR 0.166; LM 0; Sys 0.00537. GGAAACCGUCCAGCC (pool 0.288) read IR 0.102; LM 0.00742; Sys 0.

For GGAAACCGGUGUUAC (pool 0.192) the result was IR 0.0719; LM 0.00668; Sys 0. For GGAAACCGGUAGCCC (pool 0.192) the result was IR 0.0837; LM 0; Sys 0. With GGAAACCGCGAGACC (pool 0.192) the assay gave IR 0.0905; LM 0.00668; Sys 0. GGAAACCGAAUAUGC (pool 0.160) gave IR 0.137; LM 0.0134; Sys 0. With GGAAACCGAUGCGGC (pool 0.160) the assay gave IR 0.112; LM 0; Sys 0.

GGAAACCGACGCAAC (pool 0.320) gave IR 0.118; LM 0.0202; Sys 0. GGAAACCGGCUUAGC (pool 0.240) read IR 0.0523; LM 0; Sys 0. GGAAACCGUUAGCCC (pool 0.128) read IR 0.104; LM 0.0141; Sys 0. GGAAACCGUUACGGC (pool 0.192) gave IR 0.0839; LM 0.00539; Sys 0. With GGAAACCGUCAUAGC (pool 0.288) the assay gave IR 0.0587; LM 0; Sys 0.

GGAAACCGACACGCC (pool 0.192) gave IR 0.120; LM 0.00668; Sys 0. With GGAAACCGAUGGGUC (pool 0.208) the assay gave IR 0.0903; LM 0.0141; Sys 0.00537. For GGAAACCGCAUGGGC (pool 0.272) the result was IR 0.0694; LM 0; Sys 0. GGAAACCGUCGAGAC (pool 0.256) read IR 0.0805; LM 0.0215; Sys 0. GGAAACCGCGACCCC (pool 0.400) read IR 0.0696; LM 0.0121; Sys 0.00537.

GGAAACCGUGCAAUC (pool 0.384) gave IR 0.169; LM 0.00668; Sys 0.0101. GGAAACCGUCUAGUC (pool 0.0960) gave IR 0.110; LM 0; Sys 0.

The opening 2 entries, copied out:

- GGAAACCGCUAGCAC (pool 0.224) -> IR 0.346; LM 0.0726; Sys 0.0587
- GGAAACCGAGCUGAC (pool 0.128) -> IR 0.249; LM 0.0208; Sys 0

Values reported by Wu et al. 2024 (doi:10.1371/journal.ppat.1012142).